According to patent US5266600A, “BU-4641V, an antibacterial, antiviral and antitumor antibiotic” (priority 1992, dated 1993):

System: P. aeruginosa A9843A

## CC1=CCC2(C)C(=O)C(O)=C(C(C)CO)C2CC=C(C)C(O)CCC(C)=CCC1 (stereo not shown) [BU-4641V]
  MIC: > 100 mg/L
